Pooled drug test results. Numbers come from NIAID ChemDB, via PubChem.

All rows: toxicity to cultured cells; cells: MT-4; endpoint: CC50

An empty or dashed field is not shown. Rows are shuffled and stem from different studies. CCn: concentration that lowers growth or viability of the cells by n%.

| SMILES | read by | result |
|---|---|---|
| Cc1c(C(C)c2c(F)cccc2F)nc(Nc2ccc(C#N)cc2)[nH]c1=O | MTT | 1.064 µM |
| O=c1[nH]cnc2c1ncn2[C@H]1CS[C@@H](CO)O1 | - | >410 µM |
| Cc1cc(F)cc(C(=O)c2c(C(C)C)c(=O)[nH]c(=O)n2Cc2ccnc(C)c2)c1 | MTT | 22.9 µg/mL |
| CN(C)CCOc1c(Br)c(Br)c(Br)c2c1OC(C)(C)C2 | MTT | 12.4 µM |
| CCn1cc(C(=O)O)c(=O)c2cc(F)c(N3CCN(c4ncccn4)CC3)nc21 | - | 16.8 µg/mL |
| Cc1cc(Cl)cc(C(=O)c2c(C(C)C)c(=O)[nH]c(=O)n2Cc2ccnc(C)c2)c1 | MTT | 93.75 µg/mL |
| N#Cc1ccc(-c2csc(N/N=C/c3ccccc3O)n2)cc1 | MTT | 104 µM |
| CCc1c(C(=O)c2cc(C(F)(F)F)cc(C(F)(F)F)c2)n(Cc2ccncc2)c(=O)[nH]c1=O | MTT | 52.3 µg/mL |
| CCCCCCCCCCCCCCCC(=O)OCC(COC(=O)CCCCCCCCCCCCCCC)OC(=O)CCC(=O)O[C@@H]1Cc2ccccc2[C@@H]1NC(=O)[C@H](Cc1ccccc1)C[C@H](O)CN1CCN(Cc2cccnc2)C[C@H]1C(=O)NC(C)(C)C | MTT | >100 µM |
| Cc1cc(F)cc(C(=O)c2c(C(C)C)c(=O)[nH]c(=O)n2Cc2ccncc2)c1 | MTT | 22.7 µg/mL |
| CCCCCCCC/C=C\CCCCCCCC(=O)O[C@H](CN1C[C@H]2CCCC[C@H]2C[C@H]1C(=O)NC(C)(C)C)[C@H](Cc1ccccc1)NC(=O)[C@H](CC(N)=O)NC(=O)c1ccc2ccccc2n1 | MTT | >100 µM |
| Cc1cc2oc(=O)c(C(=O)/C=C/c3ccc(O)cc3)c(O)c2cc1Cl | - | 2.74 µg/mL |
| CCOC(=O)c1nnsc1Nc1ccccc1Nc1snnc1C(=O)OCC | MTT | >297.5 µM |
| CCc1c(C(=O)c2cc(C)cc(C)c2)n(Cc2cc(C)nc(C)c2)c(=O)[nH]c1=O | MTT | 17.5 µg/mL |
| Nc1ncnc2c1ncn2[C@H]1CO[C@@H](CO)S1 | - | >395 µM |
| CC(C)c1nc(COC(=O)N[C@H](C(=O)N[C@@H](Cc2ccccc2)[C@H](O)CN2CCN(Cc3cncs3)C[C@H]2C(=O)NC(C)(C)C)C(C)C)cs1 | - | 68.95 µM |
| CC(C)C(N)C(=O)O[C@@H](C[C@@H](Cc1ccccc1)C(=O)N[C@H]1c2ccccc2C[C@H]1O)CN1CCN(Cc2cccnc2)C[C@H]1C(=O)NC(C)(C)C | MTT | >100 µM |
| COc1cc(/C=C/C(=O)c2c(O)c3cc(Cl)c(C)cc3oc2=O)ccc1O | - | 9.87 µg/mL |
| C/C(=N\Nc1nc(-c2ccc([N+](=O)[O-])cc2)cs1)c1ccc(Cl)c(Cl)c1 | MTT | 14.07 µM |
| OCC(O)C(O)C(O)c1nnc2sc(-c3ccc(Cl)c(Cl)c3)nn12 | - | 97.17 µg/mL |
| Cc1cc(C)cc(Nc2c(C(C)C)c(=O)[nH]c(=O)n2Cc2ccncc2)c1 | MTT | >100 µg/mL |
| Cc1cc2oc(=O)c(C(=O)/C=C/c3cccc([N+](=O)[O-])c3)c(O)c2cc1Cl | - | 56 µg/mL |
| O=c1ccn([C@@H]2CS[C@@H](CO)O2)c(=O)[nH]1 | - | >437 µM |
| CC(c1cc(Cl)nc(Nc2ccc(C#N)cc2)n1)c1c(F)cccc1F | MTT | >2.697 µM |
| Nc1ccn([C@@H]2CO[C@@H](CO)O2)c(=O)n1 | - | >437 µM |
| Cc1cc(Cn2c(C(=O)c3cc(Cl)cc(Cl)c3)c(C(C)C)c(=O)[nH]c2=O)cc(C)n1 | MTT | 9.46 µg/mL |
| Cc1ccc(C(C)C)c2oc(=O)c(C(=O)/C=C/c3ccccc3)c(O)c12 | - | 13.2 µg/mL |
| C/C(=N\Nc1nc(-c2ccc(Br)cc2)cs1)c1ccc(Cl)c(Cl)c1 | MTT | 13.05 µM |
| CC(C)(C)NC(=O)[C@@H]1CN(Cc2cccnc2)CCN1C[C@@H](O)C[C@@H](Cc1ccccc1)C(=O)N[C@H]1c2ccccc2C[C@H]1OC(=O)CCCCOc1ccc(C[C@H](NC(=O)OC(C)(C)C)C(=O)O)cc1 | MTT | >100 µM |
| CC1(C)Cc2c(Br)c(Br)c(Br)c(OCCCN3CCCCC3)c2O1 | MTT | 6 µM |
| CC(C)c1c(C(=O)c2cc(Cl)cc(Cl)c2)n(Cc2ccncc2)c(=O)[nH]c1=O | MTT | 11.28 µg/mL |
| COc1cc(/C=C/C(=O)c2c(O)c3c(C)ccc(C(C)C)c3oc2=O)ccc1O | - | 15.11 µg/mL |
| N#Cc1ccc(Nc2nc(N)cc(Cc3c(F)cccc3F)n2)cc1 | MTT | 44.6 µM |
| COc1ccc(/C=C/C(=O)c2c(O)c3cc(Cl)c(C)cc3oc2=O)cc1 | - | >33.8 µg/mL |
| CC1Sc2c(C(=O)O)c(=O)c3cc(F)c(N4CCN(c5ncccn5)CC4)cc3n21 | - | 3.6 µg/mL |
| N#Cc1ccc(Nc2nc(Cc3c(F)cccc3F)cc(=O)[nH]2)cc1 | MTT | >25 µM |
| O=C(O)c1cn(C2CC2)c2c(OC(F)F)c(N3CCN(c4ncc(Cl)cn4)CC3)c(F)cc2c1=O | - | 3.99 µg/mL |
| Cc1c(N)nc(Nc2ccc(C#N)cc2)nc1C(C)c1c(F)cccc1F | MTT | 40.5 µM |
| Cc1cc(C)cc(C(=O)c2c(C(C)C)c(=O)[nH]c(=O)n2Cc2ccnc(C)c2)c1 | MTT | >100 µg/mL |
| Cc1ccnc2c1NC(=O)c1cccnc1N2C1CC1 | MTT | >4 µM |
| Cn1cc(C(=O)O)c(=O)c2cc(F)c(N3CCN(c4ncccn4)CC3)c(OC(F)F)c21 | - | 17.99 µg/mL |
| CC(C)(C)NC(=O)[C@@H]1CN(Cc2cccnc2)CCN1C[C@@H](O)C[C@@H](Cc1ccccc1)C(=O)N[C@H]1c2ccccc2C[C@H]1OC(=O)CCCCOc1ccc(C[C@H](N)C(=O)O)cc1 | MTT | >100 µM |
| N#Cc1ccc(Nc2nc(Cl)cc(Cc3c(F)cccc3F)n2)cc1 | MTT | >2.803 µM |
| CC(C)C[C@H](NC(=O)OC(C)(C)C)C(=O)O[C@H](CN1C[C@H]2CCCC[C@H]2C[C@H]1C(=O)NC(C)(C)C)[C@H](Cc1ccccc1)NC(=O)[C@H](CC(N)=O)NC(=O)c1ccc2ccccc2n1 | MTT | >100 µM |
| O=c1ccn([C@H]2CS[C@@H](CO)O2)c(=O)[nH]1 | - | >435 µM |
| C=C(C)C(=O)NC(=O)N[C@@H]1OC(CO[Si](C)(C)C(C)(C)C)C2(OS(=O)(=O)C=C2N)C1O[Si](C)(C)C(C)(C)C | - | 9.1 µM |
| Cc1c(OC(=O)CCCCOc2ccc(C[C@H](NC(=O)OC(C)(C)C)C(=O)O)cc2)cccc1C(=O)N[C@@H](CSc1ccccc1)[C@@H](CN1C[C@H]2CCCC[C@H]2C[C@H]1C(=O)NC(C)(C)C)OC(=O)CCCCOc1ccc(C[C@H](NC(=O)OC(C)(C)C)C(=O)O)cc1 | MTT | >100 µM |

5 of the rows above, restated:

{"SMILES": "Cc1cc(C)cc(C(=O)c2c(C(C)C)c(=O)[nH]c(=O)n2Cc2ccnc(C)c2)c1", "read by": "MTT", "result": ">100 µg/mL"}
{"SMILES": "Cc1cc2oc(=O)c(C(=O)/C=C/c3ccc(O)cc3)c(O)c2cc1Cl", "result": "2.74 µg/mL"}
{"SMILES": "C=C(C)C(=O)NC(=O)N[C@@H]1OC(CO[Si](C)(C)C(C)(C)C)C2(OS(=O)(=O)C=C2N)C1O[Si](C)(C)C(C)(C)C", "result": "9.1 µM"}
{"SMILES": "CC(C)C(N)C(=O)O[C@@H](C[C@@H](Cc1ccccc1)C(=O)N[C@H]1c2ccccc2C[C@H]1O)CN1CCN(Cc2cccnc2)C[C@H]1C(=O)NC(C)(C)C", "read by": "MTT", "result": ">100 µM"}
{"SMILES": "Cc1cc2oc(=O)c(C(=O)/C=C/c3cccc([N+](=O)[O-])c3)c(O)c2cc1Cl", "result": "56 µg/mL"}